Pooled drug test results. Numbers come from NIAID ChemDB, via PubChem.

Shared fields: whole-cell or culture tests; agent: HIV-1; read by: cytopathic effect; read-out: EC50

Blank or dashed fields: not listed here.

Cc1cn([C@H]2C=C[C@@H](COP(=O)(OCc3ccccc3)OCc3ccccc3)O2)c(=O)[nH]c1=O ; cell line: CEM + CEM-SS ; value: 4.4 µM
Cc1nc(CCCCCCCc2ccccc2)n2nc(Cl)ccc12 ; cell line: MT-4 ; strain or isolate: RF ; value: >250 µM
CC(C)(C)NC(=O)c1ccccc1C[C@@H](O)[C@H](CSc1ccc2ccccc2c1)NC(=O)c1cccc2c1CCN2 ; cell line: CEM ; value: >50 µg/mL
CC(C)[C@H](NC(=O)OCc1ccccc1)C(=O)N[C@@H](Cc1ccccc1)C(=O)C(F)(F)CCc1ccccn1 ; cell line: MT-4 ; value: 5.7 µM
Nc1nc2c(ncn2[C@H]2CC[C@@H](CO)O2)c(=O)[nH]1 ; cell line: ATH8 ; strain or isolate: LAV ; value: <10 µM
Nc1ccn([C@@H]2CS[C@H](CO)O2)c(=O)n1 ; cell line: CEM ; strain or isolate: IIIB WT ; value: 0.044 µM
Cc1cn([C@H]2C=C[C@@H](COP(=O)(O)O)O2)c(=O)[nH]c1=O ; cell line: MT-4 ; value: 0.71 µM
CCOCn1c(Cc2ccccc2)c(C(C)C)c(=O)[nH]c1=O ; cell line: CEM ; strain or isolate: P-1 (RT-K103N Y144F) ; changes: RT-K103N Y144F ; value: 0.7 µg/mL
CC(C)[C@H](NC(=O)CNC(=O)OCc1ccccc1)C(=O)N[C@@H](Cc1ccccc1)C(=O)C(F)(F)CCc1ccccc1 ; cell line: MT-4 ; value: 1.9 µM
CC(C)(C)NC(=O)c1ccccc1C[C@@H](O)[C@H](CSc1ccc2ccccc2c1)NC(=O)c1cccc2c1CCCN2 ; cell line: CEM ; value: 1.9 µg/mL
Nc1ncnc2c1ncn2[C@H]1CC[C@@H](CO)O1 ; cell line: ATH8 ; strain or isolate: IIIB ; value: 6 µM
Cc1cn([C@H]2C[C@H](N=[N+]=[N-])[C@@H](COP(=O)(OCc3ccccc3)OCc3ccccc3)O2)c(=O)[nH]c1=O ; cell line: CEM + CEM TK- ; value: >100 µM
O=c1[nH]cnc2c1ncn2[C@H]1CC[C@@H](CO)O1 ; cell line: MT-4 ; strain or isolate: IIIB ; value: 18.6 µM
COc1cc(C)nc(N2C(=O)CSC2c2c(F)cccc2F)n1 ; cell line: MT-4 ; strain or isolate: IIIB ; value: 0.264 µM
C1CNCCCN(CCC[N+]2(CCCN3CCCNCCCNCCC3)CCCNCCCNCCC2)CCCNC1 ; cell line: MT-4 ; strain or isolate: IIIB ; value: 2.5 µM
Nc1nc2c(ncn2C2CC(CO)CS2)c(=O)[nH]1 ; cell line: MT-4 ; value: >100 µM
CC1=C(C)[C@](CO)(c2ccccc2)C[C@H]1n1ccc(N)nc1=O ; cell line: MT-4 ; value: >100 µg/mL
C1CCNCCCNCCCN(CCCN2CCCNCCCNCCC2)CCCNCCCNC1 ; cell line: MT-4 ; strain or isolate: IIIB ; value: 27 µM
Cc1cn([C@@H]2O[C@H](CO[Si](C)(C)C(C)(C)C)C3(OS(=O)(=O)C=C3N)[C@H]2O[Si](C)(C)C(C)(C)C)c(=O)n(C)c1=O ; cell line: CEM ; strain or isolate: TSAO-m3T-resistant ; changes: RT-E138K ; value: >80 µM
O=[N+]([O-])c1ccc(/C=N/Nc2ccnc3c(C(F)(F)F)cc(Cl)cc23)o1 ; cell line: CEM ; value: 0.01 µg/mL
O=C(O)c1cc(C(O)(c2ccc(O)c(C(=O)O)c2)c2ccc(O)c(C(=O)O)c2)ccc1O ; cell line: CEM ; value: 110 µM
NC(=O)C[C@H](NC(=O)OCc1ccccc1)C(=O)N[C@@H](Cc1ccccc1)C(=O)C(F)(F)CCc1ccccc1 ; cell line: MT-4 ; value: 10.8 µM
Cc1cn([C@H]2C=C[C@@H](CO)O2)c(=O)[nH]c1=O ; cell line: CEM + CEM-SS ; value: 0.049 µM
COc1cc(C)nc(N2C(=O)CSC2c2c(Cl)cccc2Cl)n1 ; cell line: CEM ; changes: RT-Y188H ; value: 6.21 µM
O=C(OC[C@H]1O[C@@H](Oc2ccc(O)c3cccc(O)c23)[C@H](O)[C@@H](O)[C@@H]1O)c1cc(O)c(O)c(O)c1 ; cell line: MT-4 ; strain or isolate: IIIB ; value: >100 µg/mL
O=c1ccn([C@H]2CC[C@@H](CO)O2)c(=O)[nH]1 ; cell line: MOLT-4 ; strain or isolate: NDK ; value: 10 µg/mL
Fc1cccc(F)c1C1SCc2nc3ccccc3n21 ; cell line: CEM ; strain or isolate: IIIB ; value: 1.4 µM
CC(C)Nc1cccnc1N1CCN(C(=O)c2cc3cc(NS(C)(=O)=O)ccc3[nH]2)CC1 ; cell line: CEM ; strain or isolate: D-3 (RT-V108I M184I) ; changes: RT-V108I M184I ; value: 0.014 µg/mL
Cc1cn([C@H]2C[C@H](N=[N+]=[N-])[C@@H](CO)O2)c(=O)[nH]c1=O ; cell line: CEM ; strain or isolate: IIIB ; value: 0.007 µM
C1CCNCCCNCCCNCCCN(CCC[N+]2(CCCN3CCCNCCCNCCCNCCCCNCCCNCCCNCCC3)CCCNCCCNCCCNCCCCNCCCNCCCNCCC2)CCCNCCCNCCCNC1 ; cell line: MT-4 ; strain or isolate: IIIB ; value: 0.67 µM
CC(C)=CCOc1cc(NC(=S)c2ccoc2C)ccc1Cl ; cell line: CEM ; strain or isolate: B-1 (RT L100V K103R/K Y188H) ; changes: RT-L100V K103R/K Y188H ; value: 0.013 µg/mL
Cc1cn([C@H]2C=C[C@@H](CO)O2)c(=O)[nH]c1=O ; cell line: MT-4 ; strain or isolate: AZT-resistant (RT M41L T215Y) ; changes: RT-M41L T215Y ; value: 0.25 µM
C1CCNCCCN(CCC[N+]2(CCCN3CCCNCCCCNCCCNCCCNCCCNCCCCNCCC3)CCCNCCCCNCCCNCCCNCCCNCCCCNCCC2)CCCNCCCCNCCCNCCCNCCCNC1 ; cell line: MT-4 ; strain or isolate: IIIB ; value: 0.94 µM
Cc1cc(-c2ccc(N=Nc3ccc4c(S(=O)(=O)O)cc(S(=O)(=O)O)c(N)c4c3O)c(C)c2)ccc1N=Nc1ccc2c(S(=O)(=O)O)cc(S(=O)(=O)O)c(N)c2c1O ; cell line: ATH8 ; strain or isolate: LAV Laboratory strain ; value: <10 µg/mL
CC[C@H]1C(=O)Nc2ccc(F)cc2N1C(=O)OC(C)C ; cell line: CEM ; strain or isolate: NNRTI-resistant ; changes: RT-Y181C ; value: 0.086 µM
Cc1nc(CCCCCCC(O)c2ccccc2)n2nc(Cl)ccc12 ; cell line: MT-4 ; strain or isolate: RF ; value: 0.86 µM
CC(C)(C)OC(=O)[C@@H]1CCCN1C[C@H](O)[C@H](Cc1ccccc1)NC(=O)[C@H](CC(N)=O)NC(=O)OCc1ccccc1 ; cell line: MOLT-4 ; strain or isolate: NDK ; value: >100 µg/mL
COc1cc(C)nc(N2C(=O)CSC2c2c(F)cccc2Cl)n1 ; cell line: MT-4 ; strain or isolate: IIIB ; value: 0.056 µM
C[C@@H]1O[C@@H](Oc2c(-c3ccc(O)c(O)c3)oc3cc(O)cc(O)c3c2=O)[C@H](O)[C@H](O)[C@H]1O ; cell line: MT-4 ; strain or isolate: IIIB ; value: >100 µg/mL
CC(C)(C)NC(=O)c1ccccc1C[C@@H](O)[C@H](CSc1ccc2ccccc2c1)NC(=O)c1cccc(N)c1Cl ; cell line: CEM ; value: 1.5 µg/mL
Nc1ccn([C@@H]2O[C@H](CO)C[C@@H]2F)c(=O)n1 ; cell line: MOLT-4 ; strain or isolate: NDK ; value: 0.44 µg/mL
O=C(O)C1=CC(=C(c2ccc(O)c(C(=O)O)c2)c2ccc(O)c(C(=O)O)c2)C=CC1=O ; cell line: CEM ; value: 38 µM
CC1=C(CCC(=O)O)c2cc3nc(cc4[nH]c(cc5[nH]c(cc1n2)c(C)c5CCOC(=O)B([B]C1[B][B][B][B]1)C1[B][B][B][B]1)c(C)c4CCOC(=O)B([B]C1[B][B][B][B]1)C1[B][B][B][B]1)C(C)=C3CCC(=O)O ; cell line: MT-2 ; strain or isolate: IIIB ; value: 0.36 ± 0.1 µM
C1CCNCCCN(CCCN2CCCNCCCNCCC2)CCCNCCCCNCCCN(CCCN2CCCNCCCNCCC2)CCCNC1 ; cell line: MT-4 ; strain or isolate: IIIB ; value: 8.4 µM
Fc1ccc(F)c(C2OCc3nc4ccccc4n32)c1 ; cell line: CEM ; strain or isolate: IIIB ; value: 6.2 µM
Cc1nc(CCCCCOC(=O)c2ccccc2)n2nc(Cl)ccc12 ; cell line: MT-4 ; strain or isolate: RF ; value: 0.78 µM
O=C(O)P(=O)(O)O ; cell line: MOLT-4 ; strain or isolate: NDK ; value: 44 µg/mL
COc1cc(C(=O)OC[C@H]2O[C@@H](Oc3ccc(O)c4cccc(O)c34)[C@H](O)[C@@H](O)[C@@H]2O)cc(OC)c1O ; cell line: MT-4 ; strain or isolate: IIIB ; value: >100 µg/mL
CNc1ncnc2c1ncn2[C@@H]1C[C@H](CO)CS1 ; cell line: MT-4 ; value: >48.2 µM
Cc1nc(CCCCCCC(=O)c2ccccc2)n2nc(Cl)ccc12 ; cell line: MT-4 ; strain or isolate: RF ; value: <0.03 µM
CC1=C(C)C(CO)(CO)C[C@H]1n1ccc(N)nc1=O ; cell line: MT-4 ; value: >100 µg/mL
O=c1ccn([C@H]2C[C@H](CO)CS2)c(=O)[nH]1 ; cell line: MT-4 ; value: >100 µM
O=C(O)C1(O)C[C@@H](O)C(O)[C@H](O)C1 ; cell line: MT-2 ; strain or isolate: LAI ; value: >350 µg/mL
COc1ccc(Cc2nccc3cc(OC)c(OC)cc23)cc1OC ; cell line: MOLT-4 ; strain or isolate: NDK ; value: <1 µg/mL
CC1=C(CCC(=O)O)c2cc3nc(cc4[nH]c(cc5[nH]c(cc1n2)c(C)c5C(O)CO)c(C)c4C(O)CO)C(C)=C3CCC(=O)O ; cell line: MT-2 ; strain or isolate: IIIB ; value: 9.81 ± 1.79 µM
CC(C)(C)NC(=O)[C@@H]1C[C@@H]2CCCC[C@@H]2CN1C[C@@H](O)[C@H](Cc1ccccc1)NC(=O)[C@H](CC(N)=O)NC(=O)c1ccc2ccccc2n1 ; cell line: MOLT-4 ; strain or isolate: NDK ; value: <1 µg/mL
Nc1ncnc2c1ncn2[C@@H]1O[C@H](CO)[C@@H](O)[C@@H]1O ; cell line: ATH8 ; strain or isolate: LAV Laboratory strain ; value: >50 µg/mL
Nc1nc(=O)n([C@@H]2CS[C@H](CO)O2)cc1F ; cell line: MT-2 ; strain or isolate: IIIB ; value: 0.3 µM
Cc1c(N)cc(N)cc1C(=O)N[C@@H](CSc1ccc2ccccc2c1)[C@H](O)Cc1ccccc1C(=O)NC(C)(C)C ; cell line: CEM ; value: 0.46 µg/mL
Nc1ccn([C@H]2CC[C@@H](CO)O2)c(=O)n1 ; cell line: MOLT-4 ; strain or isolate: NDK ; value: <0.01 µg/mL
C1CCNCCCNCCCN(CCCN2CCCNCCCNCCCCNCCCNCCCCNCCCNCCC2)CCCNCCCNCCCCNCCCNC1 ; cell line: MT-4 ; strain or isolate: IIIB ; value: 1.3 µM
NC(=O)c1[nH]nc([C@@H]2O[C@H](CO)[C@@H](O)[C@H]2O)c1O ; cell line: ATH8 ; strain or isolate: LAV Laboratory strain ; value: >100 µg/mL

A second listing of 4 rows from above:

SMILES	cell line	strain or isolate	changes	value
Cc1nc(CCCCCCC(O)c2ccccc2)n2nc(Cl)ccc12	MT-4	RF		0.86 µM
COc1cc(C)nc(N2C(=O)CSC2c2c(F)cccc2Cl)n1	MT-4	IIIB		0.056 µM
O=C(O)C1(O)C[C@@H](O)C(O)[C@H](O)C1	MT-2	LAI		>350 µg/mL
O=C(OC[C@H]1O[C@@H](Oc2ccc(O)c3cccc(O)c23)[C@H](O)[C@@H](O)[C@@H]1O)c1cc(O)c(O)c(O)c1	MT-4	IIIB		>100 µg/mL

ECn: concentration that inhibits the pathogen or its effect by n%. Lines come from different laboratories, so protocols vary.